Source: PubChem BioAssay AID1259414 (Drosophila RNAi Screening Center, 2018)

- Aim: 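Fly genes that alter Wolbachia amount inside host cells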 (primary screen)
- System: Drosophila JW18 cells infected with Wolbachia
- Knock-down reagent: long dsRNA against Drosophila genes, 0.25 µg dsRNA per well of a 384-well plate
- Duration: 5 days
- Challenge: cells persistently infected with Wolbachia before knock-down; no added drug
- Read-out: 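Imaged fluorescence in situ signal for Wolbachia 23S rRNA per DAPI-counted host cell, given as a robust z-score within each plate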
- Direction: Wolbachia per cell robust z: higher = more Wolbachia per host cell than the plate typical
- Call rule: 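Active if absolute robust z reaches 1.5 in two or more of three replicates, leaving out multi- or no-target dsRNAs, genes unexpressed in JW18 and A1 wells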
In all, the deposit lists about 24,000 reagents; shown is an unselected part of those that have a named target and a result. Of all reagents, about 1,210 (5%) are marked active. 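Inactive calls also include excluded dsRNAs with several or no targets, genes unexpressed in JW18, and well A1, regardless of score.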 No sequences are given here.

For CG1208 [DRSC12190], the entry reads Wolbachia per cell robust z, rep 1 = 0.403; Wolbachia per cell robust z, rep 2 = -0.242; Wolbachia per cell robust z, rep 3 = 0.663; inactive.
For CG43689 [DRSC18046], the values are Wolbachia per cell robust z, rep 1 = 0.364; Wolbachia per cell robust z, rep 2 = 0.395; Wolbachia per cell robust z, rep 3 = 0.226; inactive.
Silencing of CG43689 [DRSC22467] came out at: Wolbachia per cell robust z, rep 1 = -1.75; Wolbachia per cell robust z, rep 2 = 0.607; Wolbachia per cell robust z, rep 3 = 0.0865; inactive.
CG43689 [DRSC23070] gave Wolbachia per cell robust z, rep 1 = -2.53; Wolbachia per cell robust z, rep 2 = 0.478; Wolbachia per cell robust z, rep 3 = -0.354; inactive.
For CG43689 [DRSC25097], the entry reads Wolbachia per cell robust z, rep 1 = 0.961; Wolbachia per cell robust z, rep 2 = -0.339; Wolbachia per cell robust z, rep 3 = 1.32; inactive.
With knock-down of CG43689 [DRSC26563], the record shows Wolbachia per cell robust z, rep 1 = 0.155; Wolbachia per cell robust z, rep 2 = -0.164; Wolbachia per cell robust z, rep 3 = -0.6; inactive.
With knock-down of CG34132 [DRSC38726] the results were Wolbachia per cell robust z, rep 1 = 1.36; Wolbachia per cell robust z, rep 2 = 0.812; Wolbachia per cell robust z, rep 3 = -4.03; inactive.
Against CG9396 [DRSC16487], the entry reads Wolbachia per cell robust z, rep 1 = -0.0915; Wolbachia per cell robust z, rep 2 = -1.79; Wolbachia per cell robust z, rep 3 = -0.739; inactive.
Against CG9396 [DRSC24611], the entry reads Wolbachia per cell robust z, rep 1 = 0.13; Wolbachia per cell robust z, rep 2 = -0.127; Wolbachia per cell robust z, rep 3 = 0.316; inactive.
Depletion of Nup154 [DRSC03384] came out at: Wolbachia per cell robust z, rep 1 = 0.354; Wolbachia per cell robust z, rep 2 = 0.705; Wolbachia per cell robust z, rep 3 = 0.899; inactive.
For Nup154 [DRSC26396] the deposit lists Wolbachia per cell robust z, rep 1 = 1.49; Wolbachia per cell robust z, rep 2 = 2.23; Wolbachia per cell robust z, rep 3 = 1.81; active.
Knock-down of qkr58E-2 [DRSC04710] came out at: Wolbachia per cell robust z, rep 1 = 0.0548; Wolbachia per cell robust z, rep 2 = -2.16; Wolbachia per cell robust z, rep 3 = -4.55; active.
Against qkr58E-2 [DRSC25296] the deposit lists Wolbachia per cell robust z, rep 1 = 0.486; Wolbachia per cell robust z, rep 2 = 0.316; Wolbachia per cell robust z, rep 3 = 1.6; inactive.

Not a retest: an excerpt of the list.
CG34132 [DRSC38726] — Wolbachia per cell robust z, rep 1: 1.36; Wolbachia per cell robust z, rep 2: 0.812; Wolbachia per cell robust z, rep 3: -4.03; Outcome: inactive
CG9396 [DRSC16487] — Wolbachia per cell robust z, rep 1: -0.0915; Wolbachia per cell robust z, rep 2: -1.79; Wolbachia per cell robust z, rep 3: -0.739; Outcome: inactive
